Record: PubChem BioAssay AID504761 (Drosophila RNAi Screening Center, 2011)
Screen: 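Genome-wide fly cell screen for genes dengue virus requires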 (primary screen). Cell system: D.Mel-2 cells from Drosophila. Knock-down reagent: long dsRNA against Drosophila genes. Conditions: infection with dengue virus type 2; dose and infection time not stated. Measured: 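Per well on two replicate plates, imaging gave the percent of cells positive for viral envelope protein, ranked by infection, and a nuclear count of cells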. Direction: infection score: higher = more virus-infected cells. Hit rule: 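Low infection ranks in the two replicates (chance level up to 0.065) followed by a retest with a 1.5-fold or larger significant decrease, p below 0.05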. Calls: active = confirmed: knock-down lowers infection; inactive = not picked or not confirmed.
The screen tested about 22,000 reagents; shown is an unselected part of those that have a named target and a result. Over the whole deposit, 116 (0.52%) are marked active. 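Calls depend on retest data that are not deposited; infection was ranked per plate without normalising between plates; the unit of the infection score is not given.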 A number with no mark means an inactive call. A plus sign joins genes that one reagent is predicted to hit. Not all columns of the deposit are shown. No sequences are given here. Not given: the amount of reagent, the time to read-out.

{"Target gene": "CG4653", "DRSC id": "DRSC19909", "infection score, replicate 1": 5.76}
{"Target gene": "CG4653", "DRSC id": "DRSC22857", "infection score, replicate 1": 1.5}
{"Target gene": "CG4653", "DRSC id": "DRSC24329", "infection score, replicate 1": 3.14}
{"Target gene": "Skp2 + CG1103", "DRSC id": "DRSC12160", "infection score, replicate 1": 12.9}
{"Target gene": "Skp2 + CG1103", "DRSC id": "DRSC22356", "infection score, replicate 1": 2.58}
{"Target gene": "Prdm13", "DRSC id": "DRSC09970", "infection score, replicate 1": 1.23}
{"Target gene": "EloC", "DRSC id": "DRSC07423", "infection score, replicate 1": 1.21}
{"Target gene": "EloC", "DRSC id": "DRSC29393", "infection score, replicate 1": 4.72}
{"Target gene": "sba", "DRSC id": "DRSC13643", "infection score, replicate 1": 4.47}
{"Target gene": "sba", "DRSC id": "DRSC17050", "infection score, replicate 1": 0.49}
{"Target gene": "sba", "DRSC id": "DRSC25797", "infection score, replicate 1": 1.9}
{"Target gene": "CG32700", "DRSC id": "DRSC17857", "infection score, replicate 1": 5.87}
{"Target gene": "CG32700", "DRSC id": "DRSC17858", "infection score, replicate 1": 0.9}
{"Target gene": "BBS1", "DRSC id": "DRSC10196", "infection score, replicate 1": 21.6}
{"Target gene": "CG7101", "DRSC id": "DRSC20023", "infection score, replicate 1": 6.55}
{"Target gene": "CG7101", "DRSC id": "DRSC22845", "infection score, replicate 1": 4.01}
{"Target gene": "Map205", "DRSC id": "DRSC16732", "infection score, replicate 1": 0.79}
{"Target gene": "Map205", "DRSC id": "DRSC27322", "infection score, replicate 1": 8.22}
{"Target gene": "Apl", "DRSC id": "DRSC10350", "infection score, replicate 1": 2.95}
{"Target gene": "GstO1", "DRSC id": "DRSC10688", "infection score, replicate 1": 1.57}
{"Target gene": "GstO1", "DRSC id": "DRSC26064", "infection score, replicate 1": 7.62}
